Source: publication doi:10.1101/2020.09.15.275891v2 (biorxiv, 2020)

Molecular target: SARSCoV2 M^pro-His6 (Severe acute respiratory syndrome coronavirus 2, UniProt P0DTD1)
Test: biochemical

CCCC[C@H](NC(=O)[C@@H]1[C@@H]2[C@H](CN1C(=O)[C@@H](NC(=O)NC1(CS(=O)(=O)C(C)(C)C)CCCCC1)C(C)(C)C)C2(C)C)C(=O)C(=O)NC1CC1 [narlaprevir]
IC50: > 20 µM
